In general, Km refers to the concentration of substrate that gives half-maximal velocity.

The test system of the data set is O=[N+]([O-])c1ccc(O[C@@H]2O[C@@H](CO)[C@H](O)[C@H]2O)cc1. The data set is described as follows: purified protein. The settings on record: 50 mM sodium phosphate pH 7.0, 45 °C, printed unit doubtful (assay used 1 mM substrate; mM possible).

For “MoAbfB (arabinofuranosidase-B) (Pyricularia oryzae 70-15)”, the Km is 0.001206 mM.

Values taken from PMC5072668.
